Test results reported in paper PMC8050947, “Free fatty acid binding pocket in the locked structure of SARS-CoV-2 spike protein” (2020).

Target: angiotensin-converting enzyme 2 (ACE2) (UniProt Q9BYF1)
Assay: SPR

For “SARS-CoV-2 spike (S) glycoprotein, secreted trimer produced in insect cells (natural protein)”, the Kd was 0.7 nM and 1.4 nM.

Where “and” joins values, the source holds several entries; their conditions need not be identical. Identical values can stand only once.
